The record followed here is article PMC9916836.

The target in this data set is T1, UvrY-His6 (UniProt P66798).
T1 sequence (looked up, limits assumed): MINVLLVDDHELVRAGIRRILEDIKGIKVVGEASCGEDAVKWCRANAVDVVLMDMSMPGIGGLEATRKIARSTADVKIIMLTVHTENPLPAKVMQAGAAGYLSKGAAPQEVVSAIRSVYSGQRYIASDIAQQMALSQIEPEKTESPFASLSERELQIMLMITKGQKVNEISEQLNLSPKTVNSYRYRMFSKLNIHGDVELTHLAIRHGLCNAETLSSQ
In words: EMSA. As to conditions: 20 mM acetyl phosphate, 3 mM MgCl2, 0-2 uM protein; recombinant protein; probe letters rebuilt from the primers and the genome. (In general: Mobility shift assays separate free from complexed probe on a gel.)

Construct, isoform or probe ends are uncertain for at least one entry. Protein sequences can lack the tags named with them.

Regarding “CGCTTACCCCAATCACTTACTTATGTAAGCTCCTGGGGATTCACTCGCTTGCCGCCTTCCTGTAACTCGAATTAAGTAGAGTATAGTGAAACGGTTCAGCTTGGTTTTTATTCTGTTTTATTTGTTTATGCAATGAGATCTATCTTATAAAGAGAAACGCTTAACTAAATGGAAATGCAATTATTAAAGTCGTTTGTTAACGAGATGATTTTCTTCTATATCATTGATTTTAAATGGATTTTAAAAATATATGATTTTTTTGTTGACATTTAATGATAATGTATTTTACACATTAGAAAAAAGAGAATAATAACATTTTAAGGTGGTTGTTTGATGAAATAGATGTGTCCTAATTTGATAGATAAACGTTATCTCACATAATTTATATCATTTGATTAATTGTTGGTCCTTCCTGATAAGGTCGCTAATAGCTTAAAATATTAAAGCATGCGGAGATTATTTATTATGA (double strand) [PLEE1 (ler promoter)]”, the binding result was “binds”.
